# Values from PubChem BioAssay AID504761 (Drosophila RNAi Screening Center, 2011).
# Test: 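Fly genes whose silencing reduces dengue virus type 2 infection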 (primary screen)
# Cells: D.Mel-2 cells from Drosophila
# Knock-down reagent: long dsRNA against Drosophila genes
# Conditions: infection with dengue virus type 2; dose and infection time not stated
# Detection: 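Cells stained for dengue envelope protein and imaged; percent of infected cells per well on duplicate plates, ranked by infection, with stained nuclei counted for cell number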
# Direction: infection score: higher = more virus-infected cells; cell count: higher = more cells in the well
# Rule for the call: 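Very low infection ranking in both replicate wells (chance probability at most 0.065), then a retest showing infection dropped 1.5-fold or more at p below 0.05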
# Meaning of the calls: active = confirmed: knock-down lowers infection; inactive = not picked or not confirmed
# In all, the deposit lists about 22,000 reagents; shown is a random part of those that have a named target and a result. Of all reagents, 116 (0.52%) were called active. 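Calls depend on retest data that are not deposited; infection was ranked per plate without normalising between plates; the unit of the infection score is not given.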 Raw values vary from plate to plate and are shown uncorrected. Reagents against one gene are numbered here. Reagent sequences are not shown. Not stated in the record: the amount of reagent, the time to read-out.
target gene,dsRNA no.,"infection score, replicate 1","infection score, replicate 2","cell count, replicate 1","cell count, replicate 2",Outcome
dap (GeneID 36001),1,17.2,13.8,4330,6238,inactive
Hey (GeneID 35764),1,2.26,4.61,6198,6707,inactive
CG42700 (GeneID 36330),1,21.7,8.81,5555,6086,inactive
CG42700 (GeneID 36330),2,2.77,6.58,6536,6660,inactive
CG42700 (GeneID 36330),3,14.1,10.9,5753,6680,inactive
CG2021 (GeneID 38229),1,5.43,0.74,5465,5679,inactive
CG2021 (GeneID 38229),2,7.25,8.35,6733,5404,inactive
mxc (GeneID 31869),1,4.7,2.03,4168,4622,inactive
Gapvd1 (GeneID 32070),1,2.48,0.39,6723,6888,inactive
Gapvd1 (GeneID 32070),2,6.92,2.64,5993,5984,inactive
CG5355 (GeneID 34421),1,4.69,1.42,6632,6486,inactive
CG1827 (GeneID 35989),1,7.65,4.29,5412,6200,inactive
CG12439 (GeneID 34234),1,2.66,2.67,6016,6965,inactive
Lpt (GeneID 37795),1,21.5,20.1,4849,5199,inactive
Lpt (GeneID 37795),2,46.8,0.18,4686,552,inactive
pcm (GeneID 32935),1,,3.99,,6417,inactive
CG44251 (GeneID 36429),1,22.8,7.19,6104,7298,inactive
CG44251 (GeneID 36429),2,4.77,3.46,6399,6358,inactive
Ugt35E2 (GeneID 53506),1,2.13,7.58,6606,6531,inactive
Ugt35E2 (GeneID 53506),2,6.69,23.3,6708,6169,inactive
Kah (GeneID 38072),1,3.39,9.92,6050,5909,inactive
Kah (GeneID 38072),2,3.85,2.27,6389,6091,inactive
Kah (GeneID 38072),3,0.85,1.53,6735,6672,inactive
Pdrg1 (GeneID 36034),1,4.61,12.9,1909,3772,inactive

Entries listed so far whose gene name starts with U or u:
target gene,dsRNA no.,"infection score, replicate 1","infection score, replicate 2","cell count, replicate 1","cell count, replicate 2",Outcome
Ugt35E2 (GeneID 53506),1,2.13,7.58,6606,6531,inactive
Ugt35E2 (GeneID 53506),2,6.69,23.3,6708,6169,inactive

More records follow:
target gene,dsRNA no.,"infection score, replicate 1","infection score, replicate 2","cell count, replicate 1","cell count, replicate 2",Outcome
lin-28 (GeneID 38639),1,1.75,5.71,5782,5885,inactive
CG31098 (GeneID 43057),1,1.63,10.4,7166,4174,inactive
CG33203 (GeneID 43414),1,4.05,4.27,6971,6483,inactive
CG33203 (GeneID 43414),2,2.93,18.3,6147,5542,inactive
CG33203 (GeneID 43414),3,4.04,11.1,6212,4234,inactive
pie (GeneID 44315),1,9.15,21.8,6328,5871,inactive
Mapmodulin (GeneID 37043),1,4.12,12.4,5091,4804,inactive
Spn27A (GeneID 45815),1,7.01,1.34,6447,6420,inactive
CG13131 (GeneID 34334),1,1.3,18.5,7135,6725,inactive
CG14427 (GeneID 31651),1,0.45,0.61,6832,6841,inactive
CG14427 (GeneID 31651),2,,16.2,307,4212,inactive
CG2076 (GeneID 32041),1,10.6,20.8,6236,6440,inactive
CG2076 (GeneID 32041),2,12.6,8.28,6219,6025,inactive
CG17327 (GeneID 41598),1,4.17,8.16,6286,6849,inactive
Mhcl (GeneID 41955),1,7.65,3.09,5488,4404,inactive
Mhcl (GeneID 41955),2,15.1,5.25,5263,6766,inactive
Mhcl (GeneID 41955),3,8.39,26.8,6495,3770,inactive
